{"source": "PubChem BioAssay AID602233", "about": "(National Center for Advancing Translational Sciences (NCATS), 2012)", "note": "Only a part is listed here, and it is no random draw. Active and inactive are the calls of the source. Calls come from the whole dose curve; as a rule, active = well fitted inhibition curve with a large enough effect; inconclusive = small, poorly fitted or top-dose-only effect; inactive = no such curve, though single readings can be large or run the other way. % is set by controls: 0 for no effect and ±100 for the full control effect."}
{"target": "Phosphoglycerate kinase, glycosomal (Trypanosoma brucei brucei) (UniProt P07378)", "experiment": "qHTS Assay to Find Inhibitors of Phosphoglycerate Kinase; note: nearly all actives have a fitted effect of over 60% in size", "details": "PGK/GAPDH coupled, Kinase-Glo luminescence, 60 min; activity change, negative = inhibition: at 57.5 µM (top of the series) unless noted", "method_in_brief": "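Luminescent ATP detection (Kinase-Glo Plus) follows a 60-minute room-temperature incubation, with wells lacking PGK as controls. Buffer: 100 mM TEA (pH 7.6), 5 mM MgCl2, 0.01% Tween-20. Coupling enzyme GAPDH (100 nM final) supplies unstable 1,3-BPG in-well.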"}
{"smiles": "COc1ccc(OP(C)(=O)Nc2ccc(SC(F)(F)F)cc2)cc1", "note": "(centres undefined)", "activity change, negative = inhibition": "inactive: 2.26%"}
{"smiles": "CCOC(=O)c1ccc(NP(C)(=O)Oc2ccc(F)cc2)cc1", "note": "(centres undefined)", "activity change, negative = inhibition": "inactive: -4.16%"}
{"smiles": "CP(=O)(OCCOc1ccccc1)OCCOc1ccccc1", "activity change, negative = inhibition": "inactive: -7.92%"}
{"smiles": "CCCCCCCCCCCCCCCC1C[N+](C)(C)CCOP(C)(=O)O1", "note": "(centres undefined)", "activity change, negative = inhibition": "inactive: -8.23%"}
{"smiles": "CP(=O)(Nc1ccc(Cl)cc1Cl)Oc1ccccc1", "note": "(centres undefined)", "activity change, negative = inhibition": "inactive: 2.24%"}
{"smiles": "COc1ccc(OP(C)(=O)Nc2ccccc2Br)cc1", "note": "(centres undefined)", "activity change, negative = inhibition": "inactive: 5.58%"}
{"smiles": "COc1ccccc1OP(C)(=O)Nc1ccc(C)c(C)c1", "note": "(centres undefined)", "activity change, negative = inhibition": "inactive"}
{"smiles": "Cc1cc(C)cc(OP(C)(=O)Nc2cccc(C(F)(F)F)c2)c1", "note": "(centres undefined)", "activity change, negative = inhibition": "inactive: -6.21%"}
{"smiles": "CCc1ccc(OP(C)(=O)O)cc1", "activity change, negative = inhibition": "inactive: -8.25%"}
{"smiles": "CP(=O)(Nc1ccccn1)Oc1ccccc1", "note": "(centres undefined)", "activity change, negative = inhibition": "inactive: -2.39%"}
{"smiles": "COc1ccccc1OP(C)(=O)Nc1ccc(C)cc1C", "note": "(centres undefined)", "activity change, negative = inhibition": "inactive: 1.58%"}
{"smiles": "O=[N+]([O-])c1cc([N+](=O)[O-])c(Nc2ccccn2)c([N+](=O)[O-])c1", "activity change, negative = inhibition": "inactive: -5.62%"}
{"smiles": "Cc1c(NP(C)(=O)Oc2ccc(C(C)C)cc2)c(=O)n(-c2ccccc2)n1C", "note": "(centres undefined)", "activity change, negative = inhibition": "inactive: 4.42%"}
{"smiles": "CN(C)CCOC(=O)C(O)(c1ccccc1)C1CCCC1", "note": "(centres undefined)", "activity change, negative = inhibition": "inactive: -8.05%"}
{"smiles": "COc1ccc(OP(C)(=O)Nc2ccccn2)cc1", "note": "(centres undefined)", "activity change, negative = inhibition": "inactive: -7.51% [at 11.5 µM]"}
{"smiles": "COc1ccccc1OP(C)(=O)Nc1ccc(Br)cc1", "note": "(centres undefined)", "activity change, negative = inhibition": "inactive: -7.58%"}
{"smiles": "CN(C)C(=O)c1c([N+](=O)[O-])cc([N+](=O)[O-])cc1[N+](=O)[O-]", "activity change, negative = inhibition": "inactive: -10.8%"}
{"smiles": "CP(=O)(Nc1ccc(Cl)cc1)Oc1ccc(F)cc1", "note": "(centres undefined)", "activity change, negative = inhibition": "inactive: 0.946%"}
{"smiles": "CC(C)(C)c1ccc(OP(C)(=O)O)cc1", "activity change, negative = inhibition": "inactive: -6.96%"}
{"smiles": "COc1ccccc1OP(C)(=O)Nc1ccccc1Br", "note": "(centres undefined)", "activity change, negative = inhibition": "inactive: -1.85%"}
{"smiles": "CP(=O)(Oc1ccccc1)N1CCOC1=O", "note": "(centres undefined)", "activity change, negative = inhibition": "inactive: -3.98%"}
{"smiles": "CCc1ccc(OP(C)(=O)Nc2cccnc2)cc1", "note": "(centres undefined)", "activity change, negative = inhibition": "inactive"}
{"smiles": "COc1ccccc1OP(C)(=O)Nc1c(C)n(C)n(-c2ccccc2)c1=O", "note": "(centres undefined)", "activity change, negative = inhibition": "inactive: -2.65%"}
{"smiles": "O=C(OCCCN1CCCC1)C(O)(c1ccccc1)C1CCCCC1", "note": "(centres undefined)", "activity change, negative = inhibition": "inactive: -3.11%"}
{"smiles": "CCN(CC)CC(O)COC(=O)C(O)(c1ccccc1)C1CCCCC1", "note": "(centres undefined)", "activity change, negative = inhibition": "inactive: -7.14%"}
{"smiles": "COc1ccc(OP(C)(=O)Nc2ccc(Br)cc2)cc1", "note": "(centres undefined)", "activity change, negative = inhibition": "inactive: -1.26%"}
{"smiles": "CP(=O)(OC12CC3CC(CC(C3)C1)C2)OC12CC3CC(CC(C3)C1)C2", "activity change, negative = inhibition": "inactive: -2.99%"}
{"smiles": "CCOC(=O)c1ccc(NP(C)(=O)Oc2ccc(Cl)cc2)cc1", "note": "(centres undefined)", "activity change, negative = inhibition": "inactive: -2.18%"}
{"smiles": "Nc1ccc2c(ccc3cccnc32)n1.O=[N+]([O-])c1cc([N+](=O)[O-])c(O)c([N+](=O)[O-])c1", "activity change, negative = inhibition": "inactive: -6.67%"}
